Results: US20230285589A1, “LIPOSOME COMPLEX FOR CANCER TREATMENT, COMPRISING NOVEL CD47 BINDER AND POLYNUCLEOTIDE” (priority 2020, published 2023)

Biological target: recombinant CD47 protein (UniProt Q08722)

SV1-(C)CRM197 (CRM197 protein added to the C-terminus of SV1) (from UniProt P00588 33-567)
Kd: 0.894 nM
